PubChem BioAssay AID1259414, Drosophila RNAi Screening Center – 2018
Test: 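Fly genes that alter Wolbachia amount inside host cells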 (primary screen). System: Drosophila JW18 cells infected with Wolbachia. Reagent: long dsRNA against Drosophila genes, 0.25 µg dsRNA per well of a 384-well plate. Time to read-out: 5 days. Conditions: cells persistently infected with Wolbachia before knock-down; no added drug. Measured: 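Imaged fluorescence in situ signal for Wolbachia 23S rRNA per DAPI-counted host cell, given as a robust z-score within each plate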. Reading the numbers: Wolbachia per cell robust z: higher = more Wolbachia per host cell than the plate typical. Active means: 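Hit when robust z is 1.5 or more, or -1.5 or less, in at least two of three replicates; excludes dsRNAs with several or no targets, genes not expressed in JW18 and well A1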.
The screen tested about 24,000 reagents; shown is an unselected part of those that have a named target and a result. In the full data, about 1,210 (5%) were called active. 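Inactive calls also include excluded dsRNAs with several or no targets, genes unexpressed in JW18, and well A1, regardless of score.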 The numbers tell different reagents against one gene apart. No sequences are given here.

For CG33702, what does the deposit list?
Wolbachia per cell robust z, rep 1: -1.89; Wolbachia per cell robust z, rep 2: -0.357; Wolbachia per cell robust z, rep 3: 0.663; Outcome: inactive

What is on record for CG6144?
Wolbachia per cell robust z, rep 1: -1.42; Wolbachia per cell robust z, rep 2: 0.796; Wolbachia per cell robust z, rep 3: -0.985; Outcome: inactive

With CG11378 #1, what was measured?
Wolbachia per cell robust z, rep 1: -0.128; Wolbachia per cell robust z, rep 2: 0.181; Wolbachia per cell robust z, rep 3: 0.309; Outcome: inactive

Which result is listed for CG11378 #2?
Wolbachia per cell robust z, rep 1: 0.341; Wolbachia per cell robust z, rep 2: 0.672; Wolbachia per cell robust z, rep 3: 0.54; Outcome: inactive

What is on record for Gen (XPG-like endonuclease)?
Wolbachia per cell robust z, rep 1: -0.646; Wolbachia per cell robust z, rep 2: 0.739; Wolbachia per cell robust z, rep 3: -0.327; Outcome: inactive

Which result is listed for mfr (misfire)?
Wolbachia per cell robust z, rep 1: 1.12; Wolbachia per cell robust z, rep 2: -0.642; Wolbachia per cell robust z, rep 3: -3.38; Outcome: inactive

For E5 #1, what was measured?
Wolbachia per cell robust z, rep 1: 0.626; Wolbachia per cell robust z, rep 2: 0.88; Wolbachia per cell robust z, rep 3: 0.119; Outcome: inactive

For E5 #2, how do the results read?
Wolbachia per cell robust z, rep 1: -1.43; Wolbachia per cell robust z, rep 2: -0.0983; Wolbachia per cell robust z, rep 3: 0.231; Outcome: inactive

With E5 #3, what was measured?
Wolbachia per cell robust z, rep 1: -1.53; Wolbachia per cell robust z, rep 2: -0.869; Wolbachia per cell robust z, rep 3: -0.574; Outcome: inactive

For CG6689 #1, what does the deposit list?
Wolbachia per cell robust z, rep 1: 0.33; Wolbachia per cell robust z, rep 2: 0.0242; Wolbachia per cell robust z, rep 3: -0.0396; Outcome: inactive

What is on record for CG6689 #2?
Wolbachia per cell robust z, rep 1: 0.348; Wolbachia per cell robust z, rep 2: -1.15; Wolbachia per cell robust z, rep 3: -0.0785; Outcome: inactive

With eIF2beta (eukaryotic translation initiation factor 2 subunit beta) #1, how do the results read?
Wolbachia per cell robust z, rep 1: 2.15; Wolbachia per cell robust z, rep 2: 2.57; Wolbachia per cell robust z, rep 3: 4.62; Outcome: active

What is on record for eIF2beta (eukaryotic translation initiation factor 2 subunit beta) #2?
Wolbachia per cell robust z, rep 1: -0.999; Wolbachia per cell robust z, rep 2: 0.326; Wolbachia per cell robust z, rep 3: -0.869; Outcome: inactive

No new results follow: an excerpt of the list.
CG6689 #1 → Wolbachia per cell robust z, rep 1 = 0.33; Wolbachia per cell robust z, rep 2 = 0.0242; Wolbachia per cell robust z, rep 3 = -0.0396; Outcome = inactive
CG6689 #2 → Wolbachia per cell robust z, rep 1 = 0.348; Wolbachia per cell robust z, rep 2 = -1.15; Wolbachia per cell robust z, rep 3 = -0.0785; Outcome = inactive
